Consider one compound from patent publication US20260286410A1, “LIPOPOLYSACCHARIDE, LIPOPOLYSACCHARIDE PRODUCTION METHOD, AND LIPOPOLYSACCHARIDE COMPOSITION” (published 2026).

The assay concerns Pantoea agglomerans (strain IG1). The assay can be described thus: Mutagen treatment of Pantoea agglomerans with MNNG, colony count. Conditions: MNNG 100 μg/mL, 37° C.

Values joined by “and” are separate entries in the source; they are usually repeats but may differ in a detail not shown here. Equal values may be shown once.

Take `CN(N=O)C(=N)N[N+](=O)[O-]`: the Death rate runs as follows: (treatment duration 0.5 hr) 94.16%; (treatment duration 1 hr) 95.62%; (treatment duration 1.5 hr) 96.84%; (treatment duration 2 hr) 97.99%; (treatment duration 3 hr) 99.9% and 99.89%; (treatment duration 4 hr) 99.9% and 99.93%.
